Construct, isoform or probe ends are uncertain for at least one entry. Tags and fusion partners may be left off the protein sequences shown.
Molecular target: T1, LsrR WT (Salmonella Typhimurium 14028s) (UniProt Q8ZKQ5)
T1 sequence (looked up): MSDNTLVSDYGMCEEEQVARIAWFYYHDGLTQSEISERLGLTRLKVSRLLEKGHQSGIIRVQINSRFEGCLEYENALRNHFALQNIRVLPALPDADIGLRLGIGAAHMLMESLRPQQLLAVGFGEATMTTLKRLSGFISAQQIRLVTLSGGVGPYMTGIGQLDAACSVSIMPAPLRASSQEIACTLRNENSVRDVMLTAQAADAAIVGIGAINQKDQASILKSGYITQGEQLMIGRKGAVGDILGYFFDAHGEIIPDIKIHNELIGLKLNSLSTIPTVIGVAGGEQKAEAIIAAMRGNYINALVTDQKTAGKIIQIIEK
Assay: EMSA
Settings: 50 mM Tris-Cl pH 7.5, 150 mM NaCl, 3 mM Mg acetate, 0.1 mM EDTA, 0.1 mM DTT, 15 min room temperature, 6% native PAGE, SYBR Gold, recombinant protein, residues 1-319, protein details: C-terminal 6xHis, label: none (SYBR Gold stain)

Sequence	binding result	binding result (single-stranded DNA)
AAGAGGGTGACTATTTGTCTGGTTTATTAACTGTTTATCCCCAAAGCACCATAATCAACGCTAGACTGTTCTTATTGTTAACACAAGGGA (double strand) [phoP promoter ds 90 bp]	binds	–
AAGAGGGTGACTATTTGTCTGGTTTATTAACTGTTTATCCCCAAAGCACCATAATCAACGCTAGACTGTTCTTATTGTTAACACAAGGGA [phoP promoter ss 90 nt]	–	binds
GACCAAATAACTACTACCGTTTTGAACAATTTCTTTTTCAAAAAACATTTGTTCAGTCCCGTCAGTCAACATTGAGGGAGCGGAGGCAAC (double strand) [lsr promoter ds 90 bp]	binds	–
GACCAAATAACTACTACCGTTTTGAACAATTTCTTTTTCAAAAAACATTTGTTCAGTCCCGTCAGTCAACATTGAGGGAGCGGAGGCAAC [lsr promoter ss 90 nt]	–	binds
